PubChem BioAssay AID1224833 | University of Georgia – 2016
Shown is a random part of about 12,000 reagents. About 5,600 of them (46%) count as active. 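Active calls cover z-scores past 1 in both directions, so they include lowered as well as raised rotavirus replication.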

Purpose: 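Host factors restraining rotavirus as candidate antiviral genes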 (primary screen)
System: monkey MA104 kidney cells
Reagents: siRNA pool against human genes, 50 nM
Time to read-out: 48 h knock-down before infection; read 24 h after infection
Challenge: infection with rotavirus strain RV3 two days after transfection; infectious dose for this stage not given
Read-out: 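z-score of rotavirus antigen signal per well, from a fluorescent immunoassay, relative to non-targeting control wells on the same plate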
Direction: z-score vs non-targeting control: higher = more rotavirus replication than with non-targeting control
Call rule: In these data the active calls have z-score vs non-targeting control at about -1 or lower, or at about 1 or higher
Calls: active = z-score beyond 1 either way; inactive = z-score within 1 of zero

target gene	PubChem SID	z-score vs non-targeting control	call
SLC2A13	SID329582202	1.13	active
MMP23B (matrix metallopeptidase 23B)	SID329576146	-0.693	inactive
ENPP5	SID329580442	-1.4	active
GRAMD1B (GRAM domain containing 1B)	SID329580249	-0.916	inactive
VIT (vitrin)	SID329574811	-1.03	active
RPS16 (ribosomal protein S16)	SID329575197	-0.226	inactive
PAH (phenylalanine hydroxylase)	SID329574742	-1.23	active
NUDCD1 (NudC domain containing 1)	SID329581794	0.904	inactive
RELN (reelin)	SID329574958	0.851	inactive
EXOC5 (exocyst complex component 5)	SID329577291	-1.43	active
PRH2 (proline rich protein HaeIII subfamily 2)	SID329574939	0.165	inactive
SUCLA2 (succinate-CoA ligase ADP-forming subunit beta)	SID329576294	-0.832	inactive
FAM9B (family with sequence similarity 9 member B)	SID329583342	-0.897	inactive
CLSTN2 (calsyntenin 2)	SID329580553	-1.51	active
ZNF174 (zinc finger protein 174)	SID329575910	0.821	inactive
ZMAT3 (zinc finger matrin-type 3)	SID329580623	-0.174	inactive
SUV39H2 (SUV39H2 histone lysine methyltransferase)	SID329580977	-1.8	active
PTMS (parathymosin)	SID329575017	0.62	inactive
SCUBE2 (signal peptide, CUB domain and EGF like domain containing 2)	SID329580379	1.48	active
TAS2R13 (taste 2 receptor member 13)	SID329578825	0.143	inactive
PLEKHG4B (pleckstrin homology and RhoGEF domain containing G4B)	SID329583087	2.1	active
OR56B4 (olfactory receptor family 56 subfamily B member 4)	SID329583356	0.85	inactive
TUBB4B (tubulin beta 4B class IVb)	SID329577123	-1.09	active
PSMC6 (proteasome 26S subunit, ATPase 6)	SID329574990	1.22	active
SNRNP35 (small nuclear ribonucleoprotein U11/U12 subunit 35)	SID329577514	-1.95	active
LUC7L3 (LUC7 like 3 pre-mRNA splicing factor)	SID329579194	-0.463	inactive
ZNF366 (zinc finger protein 366)	SID329583283	-1.08	active
TPM2 (tropomyosin 2)	SID329575703	-2.95	active
MEF2A (myocyte enhancer factor 2A)	SID329574421	-0.898	inactive
COL3A1 (collagen type III alpha 1 chain)	SID329573197	-0.793	inactive
PDCD1 (programmed cell death 1)	SID329574772	-1.41	active
OLFML2B (olfactomedin like 2B)	SID329578214	0.679	inactive
GCH1 (GTP cyclohydrolase 1)	SID329573737	-0.691	inactive
FAM20C (FAM20C golgi associated secretory pathway kinase)	SID329580117	-1.15	active
SLCO2B1	SID329577635	0.102	inactive
ZNF470 (zinc finger protein 470)	SID329584330	0.977	inactive
TSC1 (TSC complex subunit 1)	SID329575722	-1.11	active
ACTG1 (actin gamma 1)	SID329572677	1	active
NFIB (nuclear factor I B)	SID329574612	0.555	inactive
SLC17A7	SID329580139	-1.19	active
RPRD1B (regulation of nuclear pre-mRNA domain containing 1B)	SID329580412	-0.106	inactive
ADAM19 (ADAM metallopeptidase domain 19)	SID329576259	-0.99	inactive
SDHAF4 (succinate dehydrogenase complex assembly factor 4)	SID329582723	-0.378	inactive
ZNF10 (zinc finger protein 10)	SID329575854	1.12	active
GTF3C2 (general transcription factor IIIC subunit 2)	SID329573897	-0.765	inactive
UNC93A (unc-93 homolog A)	SID329579266	-1.08	active
ZNF224 (zinc finger protein 224)	SID329575930	-0.713	inactive
CYBA (cytochrome b-245 alpha chain)	SID329573327	-1.98	active
SLC12A9	SID329580129	-0.678	inactive
OTUB2 (OTU deubiquitinase, ubiquitin aldehyde binding 2)	SID329580788	1.29	active
OR10J3	SID329584607	-0.886	inactive
KDELR1 (KDEL endoplasmic reticulum protein retention receptor 1)	SID329577441	-0.404	inactive
SNAP23 (synaptosome associated protein 23)	SID329576280	0.475	inactive
CCDC126 (coiled-coil domain containing 126)	SID329581968	1.5	active

Part of the list above in another layout.
| target gene | PubChem SID | z-score vs non-targeting control | call |
| --- | --- | --- | --- |
| ADAM19 (ADAM metallopeptidase domain 19) | SID329576259 | -0.99 | inactive |
| SDHAF4 (succinate dehydrogenase complex assembly factor 4) | SID329582723 | -0.378 | inactive |
| ZNF10 (zinc finger protein 10) | SID329575854 | 1.12 | active |
| GTF3C2 (general transcription factor IIIC subunit 2) | SID329573897 | -0.765 | inactive |
| UNC93A (unc-93 homolog A) | SID329579266 | -1.08 | active |
| ZNF224 (zinc finger protein 224) | SID329575930 | -0.713 | inactive |
| CYBA (cytochrome b-245 alpha chain) | SID329573327 | -1.98 | active |
| SLC12A9 | SID329580129 | -0.678 | inactive |
| OTUB2 (OTU deubiquitinase, ubiquitin aldehyde binding 2) | SID329580788 | 1.29 | active |
| OR10J3 | SID329584607 | -0.886 | inactive |
| KDELR1 (KDEL endoplasmic reticulum protein retention receptor 1) | SID329577441 | -0.404 | inactive |
| SNAP23 (synaptosome associated protein 23) | SID329576280 | 0.475 | inactive |
| CCDC126 (coiled-coil domain containing 126) | SID329581968 | 1.5 | active |

Continued:
target gene	PubChem SID	z-score vs non-targeting control	call
ZNF165 (zinc finger protein 165)	SID329575909	0.555	inactive
KIF2C (kinesin family member 2C)	SID329577476	-0.899	inactive
AGO2 (argonaute RISC catalytic component 2)	SID329578516	-2.51	active
CHDH (choline dehydrogenase)	SID329579707	-1.99	active
PCBP2 (poly(rC) binding protein 2)	SID329574757	-1.37	active
SNX24 (sorting nexin 24)	SID329578612	-2.79	active
IQSEC2 (IQ motif and Sec7 domain ArfGEF 2)	SID329577807	-0.452	inactive
CD274 (CD274 molecule)	SID329578676	0.932	inactive
PSMD8 (proteasome 26S subunit, non-ATPase 8)	SID329574997	1.01	active
SLC46A3	SID329583842	-2.05	active
DMXL2 (Dmx like 2)	SID329577933	-0.145	inactive
HBQ1 (hemoglobin subunit theta 1)	SID329573937	-1.88	active
MANEAL (mannosidase endo-alpha like)	SID329582990	-0.883	inactive
ACOT4 (acyl-CoA thioesterase 4)	SID329582457	-0.222	inactive
NOP58 (NOP58 ribonucleoprotein)	SID329579140	-2.02	active
RAB6A (RAB6A, member RAS oncogene family)	SID329575046	0.552	inactive
NYX (nyctalopin)	SID329580481	0.0557	inactive
GTF3C1 (general transcription factor IIIC subunit 1)	SID329573896	-0.921	inactive
CCDC106 (coiled-coil domain containing 106)	SID329578711	0.823	inactive
BPIFB4 (BPI fold containing family B member 4)	SID329583007	-0.615	inactive
CX3CR1 (C-X3-C motif chemokine receptor 1)	SID329573323	0.828	inactive
SPNS2 (SPNS lysolipid transporter 2, sphingosine-1-phosphate)	SID329582505	-0.993	inactive
RESF1 (retroelement silencing factor 1)	SID329579630	0.574	inactive
BTN3A3 (butyrophilin subfamily 3 member A3)	SID329577124	-1.87	active
RWDD1 (RWD domain containing 1)	SID329579052	-1.93	active
STOML3 (stomatin like 3)	SID329583191	0.0568	inactive
GUCA1C (guanylate cyclase activator 1C)	SID329576692	-1.77	active
GNA15 (G protein subunit alpha 15)	SID329573789	0.865	inactive
CXCR1 (C-X-C motif chemokine receptor 1)	SID329574142	-0.789	inactive
TOMM7 (translocase of outer mitochondrial membrane 7)	SID329579321	0.848	inactive
LSM14A (LSM14A mRNA processing body assembly factor)	SID329578301	2.34	active
NGF (nerve growth factor)	SID329574626	-2.13	active
DAZ4 (deleted in azoospermia 4)	SID329580177	0.914	inactive
OR8G5 (olfactory receptor family 8 subfamily G member 5)	SID329583524	-0.137	inactive
OGN (osteoglycin)	SID329574697	1.13	active
SIGLECL1 (SIGLEC family like 1)	SID329583884	-0.908	inactive
UPF3A (UPF3A regulator of nonsense mediated mRNA decay)	SID329580751	0.496	inactive
SPATA32 (spermatogenesis associated 32)	SID329582496	-1.72	active
LRG1 (leucine rich alpha-2-glycoprotein 1)	SID329582329	-1.1	active
ELN (elastin)	SID329573528	1.96	active
RAVER2 (ribonucleoprotein, PTB binding 2)	SID329579650	-1.59	active
KHDRBS1	SID329577303	-1.18	active
SIGLEC10 (sialic acid binding Ig like lectin 10)	SID329581891	-1.48	active
SMAGP (small cell adhesion glycoprotein)	SID329580212	-2.12	active
ICAM4	SID329574081	-0.265	inactive
OR4F4 (olfactory receptor family 4 subfamily F member 4)	SID329578431	-1.96	active
RNASE9 (ribonuclease A family member 9 (inactive))	SID329584424	1.58	active
MKKS (MKKS centrosomal shuttling protein)	SID329576025	-0.808	inactive
CIROZ	SID329582976	1.21	active
RMDN1 (regulator of microtubule dynamics 1)	SID329578917	0.39	inactive
AP2M1 (adaptor related protein complex 2 subunit mu 1)	SID329573169	0.744	inactive
MANF (mesencephalic astrocyte derived neurotrophic factor)	SID329575962	0.407	inactive
FSIP1 (fibrous sheath interacting protein 1)	SID329583210	-0.806	inactive
ATP6V1E1 (ATPase H+ transporting V1 subunit E1)	SID329572875	-0.9	inactive
IFNA21 (interferon alpha 21)	SID329574105	0.967	inactive
FNIP2 (folliculin interacting protein 2)	SID329580316	-1.83	active
